Mtb glucose medium: 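Phenotypic screen: M. tuberculosis growth, glucose 7H9 medium, 3 days; the read-out is not stated. Concentration: 500 µM. Direction is inferred from retests: higher values go with more growth inhibition. Of about 18,000 compounds tested this way, about 1,400 (7.9%) reached 50% or more in at least one test.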
Mtb cholesterol medium: 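Phenotypic screen: M. tuberculosis growth, cholesterol and DPPC medium, 4 days; the read-out is not stated. Concentration: 500 µM. Higher reads as more growth inhibition (inferred: compounds with an IC50 in retests scored well above the rest). Size under these conditions: about 18,000 compounds, about 900 of them at 50% or above in at least one test.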

Each number is a percent effect as filed.
How 0% and 100% were set is not recorded. Most values in the screen are low, and negative values occur.
Many other results are left out here, so strong results are more common than in the screen.
A dash means the value is not listed here; it may have been measured.

Compound	Mtb glucose medium	Mtb cholesterol medium
COCCC(C)CN (stereo not shown)	-	-12.71
CCC1CCCCN1C(=O)CN1CCCC[C@@H]1CO (stereo partly shown)	-	-4.782
O=C(NC1CC1)C1CCN(CC2CCC2)CC1	-8.359	-
Cc1cc(=O)[nH]c(CN)n1	-8.979	-
CC(O)CCN(C)Cc1cscn1 (stereo not shown)	-	4.229
CNC(=O)c1ccc(NC(=O)N(C)CCOC)cc1	2.874	14.59
CCn1cc(S(=O)(=O)N2CCSCC2)cn1	33.03	-
CCc1nc(CN(C)C(=O)c2cccnc2O)cs1	-	0.3997
CCCNC(=O)c1csc(NC(C)=O)n1	10.43	-10.78
CN(C(=O)c1ccc(Cl)c(F)c1)C1(C(N)=O)CCCC1	19.87	-
Nc1ccsc1C(=O)N1CC[C@@H](N)[C@H](O)C1	19.2	-
CC1(CN)CCC(=O)N1 (stereo not shown)	-	-3.363
Cc1c[nH]c(C(=O)N2CCCN(C3CCCC3)CC2)n1	10.86	-
O=C(C1CCCN(c2ccncc2Cl)C1)N1CCCC1 (stereo not shown)	-9.149	-1.641
COC(=O)Cc1ccoc1	-	-4.418
CC(=O)c1cnccc1C	-3.32	-
COCCC1(CO)CCCN(Cc2csc(C)n2)C1 (stereo not shown)	9.847	-
NCC1CCN(c2ncccn2)CC1	20.32	-
NCCNC(=O)c1ccccc1C(F)(F)F	-	-6.554
NCc1cccc(N)n1	10.07	-
COCC1(CNC(=O)CCCn2ccnc2)CCCC1	25.46	-
CCCNC(=O)c1n[nH]c2c1CC(C)CC2 (stereo not shown)	-2.514	-
CN(Cc1ccc(O)cc1)C(=O)c1cc(Cl)c[nH]1	85.06	100
O=S(=O)(CCN1CCCC(O)C1)c1ccc(Br)cc1 (stereo not shown)	97.17	94.29
CCN(CCCS(=O)(=O)NC)c1cccc(CO)c1	4.44	-
CSC(C)(C)CNC(=O)Nc1cc(C)on1	42.74	-
CCn1c(CN(C)CCCO)nnc1[C@H]1C[C@@H](N)C1	0.2832	-
Cn1nccc1[C@H]1OCC[C@@H]1N	-	-8.576
COc1ccc2[nH]c(C(=O)NCC3CCCO3)cc2c1 (stereo not shown)	75.75	67.83
CNCC(O)c1cccc(Br)c1 (stereo not shown)	-	0.4203
CCO[C@H]1COC[C@@H]1NC(=O)c1cnc(O)cn1	-0.2969	-
CCCOC1CCCNCC1 (stereo not shown)	-	-9.382
COc1cc(CCN)ccc1Cl	49.59	12.77
NCCc1nc2c(s1)CCCC2	24.72	11.99
Cc1cc(C(=O)NCc2ccnc(N(C)C)c2)no1	12.57	2.009
COC(C)C(=O)N(C)c1ncc(Cl)cc1Cl (stereo not shown)	9.429	8.976
CCN(CC)C1CCN(C(=O)Nc2cccnn2)C1 (stereo not shown)	-	2.615
CN(Cc1ccccc1OCCO)C1CCOCC1	3.274	-
COCC(O)CNc1ncnc2c1CCNCC2 (stereo not shown)	-9.969	-
NC1CNCCNC1	-	3.655
Cc1ccc(Cl)c(OCC(=O)NN2CCOCC2)c1	0.3023	-
CC(=O)Cc1ccn(C(C)C)n1	-7.753	-
NCC(=O)Cc1ccc(Br)cc1	26.18	-
Cc1nn(C)c(Cl)c1C(=O)NCCCN(C)S(C)(=O)=O	-	-11.86
CC(=O)Nc1ccc(CC(=O)N2CCOCC2)cc1	6.924	-
CC(C)=CCNC(C(=O)N1CCOCC1)C(C)C (stereo not shown)	7.662	-
CC1CCCCN1S(=O)(=O)c1ccc(CCN)cc1 (stereo not shown)	55.9	-
CCOc1ccc2c(c1)cc(C(=O)NCCOC)n2C	1.374	-6.251
Cc1ccc(C(=O)N(C)CC2(C)CCOCC2)cn1	-	-3.272
COCCCN1CCC(Nc2ccc(Cl)cn2)CC1	28.16	5.566
Nc1nnc(SCCc2ccccc2)[nH]1	28.68	26.88
Nc1nnc(SCC(=O)OC2CCCCC2)[nH]1	7.716	-
COc1cccc(F)c1N1CCNCC1	43.84	7.133
CC(C)c1nnc2n1CC(N)CC2 (stereo not shown)	-6.733	-
CNC(=O)C1CCCN(C(=O)c2cncc(Br)c2)C1 (stereo not shown)	18.59	-
CC(=O)N1CCN(C(=O)NCCCNS(C)(=O)=O)CC1	-8.232	-
CC(=O)NCc1ccc(OC2CCN(C)CC2)cc1	-	16.17
CCc1ccc(CN2C[C@@H]3CCC[C@H](C2)C(=O)N3)nc1	3.999	-
CC(C)(C)OC(=O)N1CCn2ccnc2C1	6.674	-
CC(NC(=O)c1ccc(Cl)s1)c1ncon1 (stereo not shown)	4.264	-
CC(O)(CCN)c1ccccc1 (stereo not shown)	-	6.479
CNCCc1ccccc1OC	85.85	91.24
CCc1ccccc1S(=O)(=O)N(C)C(C)CN (stereo not shown)	43.69	-
CCC1(CNCc2ccc3c(c2)OCO3)COC1	11.6	-
COc1ccc2c(c1)CN(C(=O)c1ccccn1)CC2	22.96	-
CCC(O)CN1CCN(c2ncccc2Br)CC1 (stereo not shown)	53.57	51.77
Cc1cc(C(=O)NCc2ccccn2)[nH]n1	-3.122	5.781
CN(C)Cc1ccc(C(=O)NCCCc2ccco2)o1	-	29.06
CNC(C)(CO)c1ccccc1 (stereo not shown)	-	8.51
COC(=O)CCNC(=O)C1CCCO1 (stereo not shown)	5.497	7.578
CN(C)C(=O)CN(C)C(=O)COc1ccc(Cl)cc1Cl	-	-7.947
OC1(c2ccccc2)CCCNC1 (stereo not shown)	-11.54	-

Repeated from the top, 6 entries:

| Compound | Mtb glucose medium | Mtb cholesterol medium |
|---|---|---|
| `COCCC(C)CN` (stereo not shown) | - | -12.71 |
| `CCC1CCCCN1C(=O)CN1CCCC[C@@H]1CO` (stereo partly shown) | - | -4.782 |
| `O=C(NC1CC1)C1CCN(CC2CCC2)CC1` | -8.359 | - |
| `Cc1cc(=O)[nH]c(CN)n1` | -8.979 | - |
| `CC(O)CCN(C)Cc1cscn1` (stereo not shown) | - | 4.229 |
| `CNC(=O)c1ccc(NC(=O)N(C)CCOC)cc1` | 2.874 | 14.59 |

The values are deposited in ChEMBL (CHEMBL3988442, “University of Dundee, Small-Polar-MMV Screening Library” (2021)).